These results are taken from the supplement of paper PMC9931576.

Human monoclonal antibodies against the spike receptor-binding domain (heavy:light variable regions). IC50 against pseudoviruses bearing the spike of naturally observed variants; lower = stronger; >10 µg/ml means not reached at the top dose. No active / inactive call. The stated detection limit is 0.0005 µg/ml; values near or below 0.001 µg/ml lie at the floor of the assay.

To fix the notation:
B1: BD56-1551 (protein)
chain 1: EVQLVESGGGLVQPGRSLRLSCAASGFTFRDYAMHWVRQVPGKGLEWVSGINWSSDKIHYADSVRGRFTISRDNAKNSLYLQMNSLRTEDTALYYCAKDIADQQQDLGDDYYYYYGMDVWGQGTTVTVSS
chain 2: SYDLTQPPSVSVSPGQTASITCSGHKLGDKYVSWYQQKPGQSPVLVIYQDSKRPSGIPERFSGSNSGKTATLTVSGTQAMDEADYYCQAWDSSISYVFGTGTKVTVL
B2: BD56-1555 (protein)
chain 1: EALLVESGGGLVKPGGSLRLSCAASGFSFTNAWMNWVRQAPGKGLEWVGLIKSKIDGGTPEYAAPVKDRFTISRDDSKNTLFLQMNSLNIEDTAVYYCWFGDFLNYYHYGMDVWGQGTTVIVSS
chain 2: DIQMTQSPSTLSASVGDRVTITCRASQSISSWLAWYQQKPGKAPKVLIYKASNLQSGVPSRFSGSGSGTEFTLTISSLRPDDSATYYCQQYNSYLYTFGQGTKLEIK
B3: BD56-1556 (protein)
chain 1: QLQLQESGPGLVKPSETLSLTCTVSGGSISSNNYYWGWIRQPPGKGLEWVESIYYTGTTYYNPSLKSRVTISVDTSKNQFSLRLSSVTAADTAVYYCARHGTLMVVDSFDYWGQGTLVTVSS
chain 2: QSVLTQPPSVSGAPGQRVTISCTGSSSNIGADYDVHWYQQFPGTAPKLLISGNTNRPSGVPDRFSGSKSGTSASLAITGLQADDEAIYYCQSHDSSLRGWVFGGGTKLTVL
B4: COV2-2919 (protein)
chain 1: QVTLRESGPALVKPTQTLTLTCTFSGFSLSTSGMCLSWIRQPPGKALEWLARIDWDDDKYYSTSLETRLTISKDTSKNQVVLTMTNMDPVDTGTYYCARTMATINAFDIWGQGTMVTVSS
chain 2: DIQMTQSPSSLSASAGDRVTITCRASQSIRYYLNWYQQKPGKAPKLLIYAASSLQSGVPSRFSGSGSGTDFTLTISSLQPEDFAAYYCQQSFSTPRTFGQGTKLEIK
B5: BD56-1547 (protein)
chain 1: QVQLVESGGGVVQPGRSLRLSCAASGFTFSSYALHWVRQAPGKGLEWVAAISFDGSNIYYADSVKGRFTVSRDNSKNTLYLQMNSLRAEDTAVYFCARDWGYAYTYGSSSDYWGQGALVTVSS
chain 2: DIQMTQSPSTLSASVGDRVTITCRASQSLTSWLAWYQQKPGRAPKLLIYQASSLESGVPSRFSGSGSGTEFTLTISSLQPADFATYYCQQYKSYPYTFGQGTKLEIK
B6: BD56-1554 (protein)
chain 1: EVQLVESGGGLVQPGRSLRLSCAASGFTFDDYGMHWVRQAPGMGLEWVSGISWSSATIDYADSVKGRFTISRDNAKNSLYLEMNSLRVEDTALYYCAKHVRRTTWLKDAFDLWGQGTMVTVSS
chain 2: DIVMSQSPDSLAVSLGERATINCKSSQSVLYSSTNNNYLAWYQQKPGQPPKLLIYWASTRESGVPDRFIGSGSGTDFTLTISSLQAEDVAVYYCQQYYTTPTFGQGTKVEIK

The first assay addresses SARS-CoV-2 Omicron BA.1 spike pseudovirus. Description: pseudovirus neutralization IC50; higher = weaker neutralization. The method, then:
(§1)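 Single-round VSV luciferase pseudovirus mixed with antibody dilutions for 1 h and put on Huh-7 cells for about a day; IC50 from the dose curve.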
Turning to B1, the “pseudovirus neutralization IC50” value is 1.98 µg/mL.
With B2, the “pseudovirus neutralization IC50” value was 1.01 µg/mL.
Turning to B3, the “pseudovirus neutralization IC50” value was above 10 µg/mL.
In the case of B4, the “pseudovirus neutralization IC50” value is above 10 µg/mL.
Consider B5, for which the “pseudovirus neutralization IC50” value is above 10 µg/mL.
Consider B6, for which the “pseudovirus neutralization IC50” value was above 10 µg/mL.

A further assay addresses SARS-CoV-2 Omicron BA.2 spike pseudovirus. The description is as above. The method, then: as §1
Turning to B1, the “pseudovirus neutralization IC50” value was 2.31 µg/mL.
Regarding B2, the “pseudovirus neutralization IC50” value was 1.69 µg/mL.
With B3, the “pseudovirus neutralization IC50” value is above 10 µg/mL.
Take B4: the “pseudovirus neutralization IC50” value was above 10 µg/mL.
On the same count and under the same terms, the value for B5 was above 10 µg/mL.
Same read-out and setting: the value for B6 was above 10 µg/mL.

In another assay the target is SARS-CoV-2 Omicron BA.2.75 spike pseudovirus. Described as above. The method, then:
as §1
Turning to B1, the “pseudovirus neutralization IC50” value is 0.974 µg/mL.
On the same count and under the same terms, the result for B2 reads above 10 µg/mL; that for B3, above 10 µg/mL; that for B4, above 10 µg/mL.
On to B5, for which the “pseudovirus neutralization IC50” value was above 10 µg/mL.
Still for that read-out and setting: the result for B6 reads above 10 µg/mL.

Another assay deals with SARS-CoV-2 Omicron BA.5 spike pseudovirus. The assay is described as above. As for the experimental part: as §1
Regarding B1, the “pseudovirus neutralization IC50” value was 1.27 µg/mL.
Turning to B2, the “pseudovirus neutralization IC50” value was above 10 µg/mL.
B3: the “pseudovirus neutralization IC50” value was above 10 µg/mL.
In the case of B4, the “pseudovirus neutralization IC50” value was above 10 µg/mL.
B5: the “pseudovirus neutralization IC50” value was above 10 µg/mL.
On the same count and under the same terms, the result for B6 reads above 10 µg/mL.

A further assay concerns the target SARS-CoV-2 Omicron BQ.1.1 spike pseudovirus. The description is as above. The method, then:
as §1
B1: the “pseudovirus neutralization IC50” value was determined as 2.55 µg/mL.
In the case of B2, the “pseudovirus neutralization IC50” value is above 10 µg/mL.
For the molecule B3, the “pseudovirus neutralization IC50” value is above 10 µg/mL.
On to B4, for which the “pseudovirus neutralization IC50” value is above 10 µg/mL.
Same read-out and setting: the value for B5 was above 10 µg/mL; that for B6 was above 10 µg/mL.

The next assay deals with SARS-CoV-2 Omicron XBB spike pseudovirus. Described as above. The method, then: as §1
In the case of B1, the “pseudovirus neutralization IC50” value was 2.48 µg/mL.
As to B2, the “pseudovirus neutralization IC50” value was above 10 µg/mL.
With B3, the “pseudovirus neutralization IC50” value is above 10 µg/mL.
Regarding B4, the “pseudovirus neutralization IC50” value was above 10 µg/mL.
Consider B5, for which the “pseudovirus neutralization IC50” value is above 10 µg/mL.
For the molecule B6, the “pseudovirus neutralization IC50” value was above 10 µg/mL.

A further assay addresses SARS-CoV-2 early D614G spike pseudovirus. The assay is described as above. The method, then:
as §1
In the case of B1, the “pseudovirus neutralization IC50” value was determined as 2.61 µg/mL.
With B2, the “pseudovirus neutralization IC50” value was above 10 µg/mL.
As to B3, the “pseudovirus neutralization IC50” value was above 10 µg/mL.
Same read-out and setting: the value for B4 was 0.672 µg/mL; that for B5 was above 10 µg/mL.
B6: the “pseudovirus neutralization IC50” value is above 10 µg/mL.
